Experimental data reported in paper PMC12207370, “Macrocyclic Peptide Probes for Immunomodulatory Protein CD59: Potent Modulators of Bacterial Toxin Activity and Antibody‐Dependent Cytotoxicity” (Angewandte Chemie (International Ed. in English), 2025).

Test system: SK-BR-3 cells
Assay: ILY lysis assay (Sytox green, IncuCyte) in SK-BR-3 cells
Type: cell-based, human
Procedure: Figure 5 CP‐06 and optimized analogues control CD59 activity in cellular assays. a) ILY lysis assay. SK‐BR‐3 cells were treated with CP‐06 (n = 4) or CP‐06[W3A] (n = 2), then with Sytox green dye and ILY ([…]). The plate was imaged immediately with the IncuCyte S3 Live Cell Analysis System and then every hour up to 14 h. The linear phase of lysis was taken from each well, and linear regression was performed to extract individual slope values, which were then normalized to maximum lysis rate (Sytox and ILY) vs. 0% lysis (Sytox only) within each plate. […] Human erythrocytes were sensitized with 1% w/v anti‐human erythrocyte Ab with 5% v/v human serum in the presence of a serial dilution of CP‐06C18 (black bars) or CP‐06scrmb‐C18 (red bars) Percent lysis enhancement was calculated by normalization to 0% enhancement (buffer well) and plotted as the mean of three biological replicates ± SEM.
Determination of optimal ILY concentration: 20,000 SK-BR-3 cells were seeded in a 96-well plate (Grenier, 655180) 24 h before treatment. […] Any bubbles were removed by a de-bubbler and the plate was immediately transferred to IncuCyte® S3 Live Cell Analysis System where each well was imaged 4 times at 10 × magnification with phase contrast and green fluorescence (λex 440–480 nm, λem = 504–544 nm) every hour for 24 h. […]

SMILES	fold enhancement of IC50 compared to CP-06 [fold]
CCCCCCCCCCCCCCCCCOCCOCCOCCOCCOCCOCCOCCOCCOCCOCCOCCOCCOCCC(=O)NCCCC[C@H](NC(=O)CNC(=O)[C@@H]1CSCC(=O)N[C@H](Cc2ccc(O)cc2)C(=O)N[C@@H](CO)C(=O)N[C@@H](Cc2c[nH]c3ccccc23)C(=O)N[C@@H]([C@@H](C)O)C(=O)N[C@@H](Cc2c[nH]c3ccccc23)C(=O)NCC(=O)N[C@@H](CC(N)=O)C(=O)N[C@@H](CCCNC(=N)N)C(=O)N[C@@H](CO)C(=O)N[C@@H](CO)C(=O)N[C@@H](C(C)C)C(=O)N[C@@H](CCCNC(=N)N)C(=O)NCC(=O)N1)C(=O)NCC(N)=O [CP-06C18] ({CH2CO}-[dY]SWTWGNRSSVRGCGK(X1)G-NH2; thioether N-14)	250
CC(C)[C@@H]1NC(=O)[C@H](CO)NC(=O)[C@H](CO)NC(=O)[C@H](CCCNC(=N)N)NC(=O)[C@H](CC(N)=O)NC(=O)CNC(=O)[C@H](Cc2c[nH]c3ccccc23)NC(=O)[C@H]([C@@H](C)O)NC(=O)[C@H](Cc2c[nH]c3ccccc23)NC(=O)[C@H](CO)NC(=O)[C@@H](Cc2ccc(O)cc2)NC(=O)CSC[C@@H](C(=O)NCC(=O)N[C@@H](CCCCNC(=O)CCOCCOCCOCCOCCOCCC(=O)NCCCC[C@H](NC(=O)CNC(=O)[C@@H]2CSCC(=O)N[C@H](Cc3ccc(O)cc3)C(=O)N[C@@H](CO)C(=O)N[C@@H](Cc3c[nH]c4ccccc34)C(=O)N[C@@H]([C@@H](C)O)C(=O)N[C@@H](Cc3c[nH]c4ccccc34)C(=O)NCC(=O)N[C@@H](CC(N)=O)C(=O)N[C@@H](CCCNC(=N)N)C(=O)N[C@@H](CO)C(=O)N[C@@H](CO)C(=O)N[C@@H](C(C)C)C(=O)N[C@@H](CCCNC(=N)N)C(=O)NCC(=O)N2)C(=O)NCC(N)=O)C(=O)NCC(N)=O)NC(=O)CNC(=O)[C@H](CCCNC(=N)N)NC1=O [CP-06dimer] (I: {CH2CO}-[dY]SWTWGNRSSVRGCGKG-NH2 / II: {CH2CO}-[dY]SWTWGNRSSVRGCGKG-NH2; linker I:16-II:16 via CO(CH2CH2O)5CH2CH2CO; thioether I:N-I:14, II:N-II:14)	3

Numbered stars: 1 amine (or outer) side, 2 acyl side, 3 side chain; on linkers, the order of the positions; unused ones are H or OH. Bridge positions count the residues as written; N and C are the ends. Square brackets hold non-standard residues; d marks the D form. Peptide text beside a SMILES is read from it. I, II: the chains in the order shown. * marks the point of attachment. X1 = CCCCCCCCCCCCCCCCCOCCOCCOCCOCCOCCOCCOCCOCCOCCOCCOCCOCCOCCC(=O)*; CO(CH2CH2O)5CH2CH2CO = O=C(CCOCCOCCOCCOCCOCCC(=O)[*:2])[*:1]
